Laboratory results: US20260184773A1, “THERAPEUTIC SINGLE DOMAIN ANTIBODY” (priority 2021, published 2026)

System: VEGF production by retinal epithelial cells (ARPE-19)

SBT-100: 15 kDa camelid single domain antibody (VHH), SEQ ID NO: 1, binds both STAT3 and KRAS
Time to inhibit VEGF protein production to near zero (human retinal epithelial cells): ≤ 12 h | Duration of biological effect on VEGF of a single administration (retinal epithelial cells in vitro): at least 48 hours
